Patent publication US20240285753A1 (DUKE UNIVERSITY, published 2024)
Where two headings read alike, the source gives them in different places.

B1: DH1498 (antibody, V domains shown)
VH: QVQLQESGPGLVKPSETLSLTCAVSGGSVSSDTYYWSWIRQPPGKGLEWIGYIYNSGSTNYNPSLKSRVTISVDTSKSQFSLNLGSVTAADTAVYYCAREGAGTYPPKNDAFDIWGQGTLVTVSS
VL: EIVLTQSPDSLAVSLGERATINCKSSQSVLFSSDNKNYLAWYQQKPGQPPKLLIYWASTRESGVPDRFSGSGSGTDFTLTISSLQAEDVAVYYCQQYYNSPRTFGQGTKVEIK
B2: DH1509 (antibody, V domains shown)
VH: QVQLVESGGGVVQPGRSLRLSCAASGFTLSSHGIHWVRQAPGKGLEWVAVTSFDGRNKKFGDSVKGRFTISRDNSKNTVYLQMNSLRTEDTAVYYCAKDWGDDYSRWYFDLWGRGTLVTVSS
VL: DIQMTQSPSSLSASVGDRVTITCQASHDITKYLNWYQQKPGRAPKLLIYDASNLKTGVPSRFSGSGSGTDFTFTITSLQPEDLATYYCQQSDVLPITFGQGTRLEIK

How the values were obtained:
Delta [1] = target: T1, Delta (SARS-CoV-2); test: ELISA, coated spike, mAb titrated
T1 construct: recombinant spike

Delta [2] = target: T1, Delta; test: ELISA, coated spike, mAb titrated; remark: listed apart in the source

| Binder | EC50 (read off the curve) (Delta [1]) [µg/mL] | EC50 (read off the curve) (Delta [2]) [µg/mL] |
| --- | --- | --- |
| B1 | ~0.03 | – |
| B2 | – | ~0.06 |
